The record followed here is PubChem BioAssay AID1347069 (National Center for Advancing Translational Sciences (NCATS), 2019).

Amino acid sequences for entries named in this document (tags omitted).
UniProt Q99816, whole entry: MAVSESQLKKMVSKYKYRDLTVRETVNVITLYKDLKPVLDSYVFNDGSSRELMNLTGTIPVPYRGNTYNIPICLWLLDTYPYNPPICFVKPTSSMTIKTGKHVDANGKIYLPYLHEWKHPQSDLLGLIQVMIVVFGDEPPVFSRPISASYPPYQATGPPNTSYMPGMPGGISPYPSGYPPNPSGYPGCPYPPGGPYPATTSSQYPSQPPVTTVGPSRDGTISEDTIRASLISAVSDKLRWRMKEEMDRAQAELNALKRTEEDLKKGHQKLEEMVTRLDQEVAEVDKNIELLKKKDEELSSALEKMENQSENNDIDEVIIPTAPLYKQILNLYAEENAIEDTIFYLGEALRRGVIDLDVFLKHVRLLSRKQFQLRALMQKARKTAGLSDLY

The list shows a part of the results, in another mix than the full data. Activity calls are given as the source filed them. Calls come from the whole dose curve; as a rule, active = well fitted inhibition curve with a large enough effect; inconclusive = small, poorly fitted or top-dose-only effect; inactive = flat fitted curve, though single readings scatter.

The assay addresses Tumor susceptibility gene 101 protein (Homo sapiens) (UniProt Q99816). The experiment in a line: qHTS Validation Assay for Inhibitors of HIV-1 Budding by Blocking the Interaction of PTAP/TSG101: Sytravon Library Screen. Note: 0% is about no effect. As to conditions: Fluorescence polarization, FITC-PTAP peptide/Tsg101, 20 min; at 115 µM (top of the series). From the text: Stages of the HIV-1 replication cycle, specifically virus assembly and release, provide underexploited targets for the development of novel antiviral inhibitors. The late stages of HIV-1 replication are mediated by the Gag precursor protein, Pr55Gag. Expression of Pr55Gag is both necessary and sufficient for the production of virus-like particles from Gag-expressing cells. The Gag protein hijacks key host proteins involved in endocytic machinery of the host cell to promote endosomal processing and viral budding. The budding process requires a direct interaction between a […] (PTAP) motif in the p6 domain of Gag and the cellular endosomal sorting protein known as Tsg101. In this way, the Gag PTAP motif promotes the host cells to recruit viral particles to the plasma membrane where the new viral particles are released, effectively turning the host cells into viral factories. A fluorescence polarization assay has been developed to quantitatively measure the PTAP-Tsg101 interaction which can be used to screen for inhibitors of this interaction. This assay was run against the NCGC Sytravon Library collection. NIH Molecular Libraries Probe Production Network [MLPCN] NIH Chemical Genomics Center [NCGC] Grant: R03 MH087464-01A1 PI Name: Dr. Eric Freed, NCI
Two uL of the Tsg101 binding domain in buffer (10 mM HEPES pH 7.5; 0.15 M NaCl, 0.01% Tween 20; 3 mM EDTA;0.1 mM TCEP) was dispensed into Greiner black MB 1536-well plates (final concentration 10 uM). Then, 23 nL of compounds or DMSO were delivered to each well using a pin tool. Finally, 2 uL of a FITC-labeled peptide containing the PTAP motif (1) in the same buffer was dispensed (50 nM final concentration) and the binding was allowed to proceed for 20 min. at r.t. Fluorescent polarization was determined using FITC excitation and polarized emission filters on a Perkin Elmer Envision. Assay cut-off (positive/negative criteria): Actives defined by CRC class, <25 µM; Efficacy <60% inhibition. The total fluorescent intensity from S and P channels will be used to flag fluorescent compounds.
A general note: Quantitative high-throughput screening tests each substance at several concentrations.
On to `O=C(NCC1(N2CCOCC2)CCCCC1)c1ccccc1[N+](=O)[O-]`, for which the activity change, negative = inhibition was inactive: -3.1%.

On to `O=C(NCC1(N2CCOCC2)CCCCC1)c1ccc([N+](=O)[O-])cc1`, for which the activity change, negative = inhibition is inactive: 0.893%.

As to `O=C(NCC1(N2CCOCC2)CCCCC1)c1ccccc1`, the activity change, negative = inhibition was inactive: -5.54%.

For `COc1cc(C(=O)NCC2(N3CCOCC3)CCCCC2)cc(OC)c1OC`, the activity change, negative = inhibition is inactive: -0.449%.

As for `CN(C)C1(CNC(=O)c2ccc(C(C)(C)C)cc2)CCCCC1`, the activity change, negative = inhibition was inactive: -4.73%.

Consider `Cc1ccccc1C(=O)NCC1(N(C)C)CCCCC1`, for which the activity change, negative = inhibition was inactive: -0.349%.

For the molecule `CC(C)(C)c1ccc(C(=O)NCC2(N3CCOCC3)CCCCC2)cc1`, the activity change, negative = inhibition is inactive: -0.979%.

As for `O=C(NCC1(N2CCOCC2)CCCCC1)c1ccc(Cl)cc1`, the activity change, negative = inhibition was inactive: 1.36%.

Turning to `COc1ccccc1C(=O)NCC1(N2CCOCC2)CCCCC1`, the activity change, negative = inhibition was inactive: -0.0296%.

For `O=C(NCC1(N2CCOCC2)CCCCC1)c1ccccc1Br`, the activity change, negative = inhibition was inactive: -4.39%.

In the case of `CCCCOc1ccccc1C(=O)NCC1(N2CCOCC2)CCCCC1`, the activity change, negative = inhibition was inactive: -4.56%.

As to `CCOc1ccc(C(=O)NCC2(N3CCOCC3)CCCCC2)cc1`, the activity change, negative = inhibition is inactive: 3.77%.

Turning to `CCCOc1cccc(C(=O)NCC2(N3CCOCC3)CCCCC2)c1`, the activity change, negative = inhibition was inactive: -10.4%.
